Where two headings read alike, the source gives them in different places.
Target: SARS-CoV-2 3CL^pro (Severe acute respiratory syndrome coronavirus 2, UniProt P0DTD1)
Format: biochemical
Conditions: pH 7.4

Substance: Myricitrin
- IC50 (read-out: IC50 0.5 (min)): 118 µM
- IC50 (read-out: IC50 60 (min)): 14.2 µM

— publication PMC8322037 (International Journal of Biological Macromolecules, 2021)
